# “And” between values parts separate entries of the source, which are not always exact repeats. Equal entries are not always repeated.
# Legend:
# E. coli ATCC 11229 = assay: Challenge of E. coli by AgAOT doped polyurethane coatings on microscope slides; details: for CFU/mL of E. coli at 12 hours / CFU/mL of E. coli at 24 hours: PU microscope slide coating, triplicate
# P. aeruginosa ATCC 15442 = assay: Challenge of P. aeruginosa by AgAOT doped polyurethane coatings on microscope slides
# [1] = system: Escherichia coli ATCC 11229; assay: E. coli challenge by household surfaces sprayed with AgAOT; details: for CFU/mL, Avg / CFU/mL, Run #1-#2: sprayed 0.06% silver solution
# [2] = system: Escherichia coli ATCC 11229; assay: E. coli challenge by fabrics sprayed with AgAOT; details: for effect on E. coli: 0.24% silver solution sprayed
# E. coli [3] = assay: E. coli challenged by silver surfactants in commercial alkyd paint; assay type: cell-based, Escherichia coli; details: 24 h contact time; for surviving bacteria (growth): alkyd resin paint coating; on surviving bacteria (growth): key: A minus sign (−) denotes no growth; a plus sign (+) denotes confluent growth; a capital P (P) denotes particle growth
# E. coli [4] = assay: E. coli challenged by silver surfactants in laboratory acrylic paint; assay type: cell-based, Escherichia coli; details: laboratory solvent borne acrylate paint coating, 24 h contact time; further: key: A minus sign (−) denotes no growth; a plus sign (+) denotes confluent growth; a capital P (P) denotes particle growth
# [5] = 0.031% weight w/w Ag in coating (first column 0.0574)
# [6] = 0.061% weight w/w Ag in coating (first column 0.113)
# [7] = 0.122% weight w/w Ag in coating (first column 0.226)
# [8] = acetate, sprayed 0.06% w/w AgAOT/isopropanol, 24 h contact time
# [9] = cotton, sprayed 0.06% w/w AgAOT/isopropanol, 24 h contact time
# [10] = linen, sprayed 0.06% w/w AgAOT/isopropanol, 24 h contact time
# [11] = polyester, sprayed 0.06% w/w AgAOT/isopropanol, 24 h contact time
# [12] = silk, sprayed 0.06% w/w AgAOT/isopropanol, 0 h contact time
# [13] = silk, sprayed 0.24% w/w AgAOT/isopropanol, E. coli - 0 h
# [14] = silk, sprayed 0.24% w/w AgAOT/isopropanol, E. coli - 24 h
substance,measurement,setting,value
silver bis[2-ethylhexyl]sulfosuccinate,CFU/mL of E. coli at 12 hours,E. coli ATCC 11229; [5],"0, 0, 0 CFU/mL"
same,CFU/mL of E. coli at 24 hours,E. coli ATCC 11229; [5],"0, 0, 0 CFU/mL"
same,CFU/mL of E. coli at 12 hours,E. coli ATCC 11229; [6],"0, 0, 0 CFU/mL"
same,CFU/mL of E. coli at 24 hours,E. coli ATCC 11229; [6],"0, 0, 0 CFU/mL"
same,CFU/mL of E. coli at 12 hours,E. coli ATCC 11229; [7],"0, 0, 0 CFU/mL"
same,CFU/mL of E. coli at 24 hours,E. coli ATCC 11229; [7],"0, 0, 0 CFU/mL"
same,reduction of the number of viable bacteria,"E. coli ATCC 11229; at and above 0.012% weight Ag relative to overall coating weight, 24 h",3 logs
same,killing the P. aeruginosa,"P. aeruginosa ATCC 15442; 0.0012% weight Ag relative to overall coating weight, 24 h exposure",effective at killing
same,overall level effective as a bactericide,P. aeruginosa ATCC 15442; 24 hours of exposure,0.006 % weight silver relative to coating weight
same,level that appears to kill all of the P. aeruginosa,P. aeruginosa ATCC 15442; both 12 and 24 h exposure,≥ 0.031 % weight Ag relative to coating weight
same,E. coli eradication,"[1]; each of the household surface samples, 24 h contact time",eradicated
same,attenuation of E. coli growth,"[1]; household surface samples, 0 h contact time (5-10 minutes)",does not significantly attenuate
same,"CFU/mL, Avg","[1]; metal plate, 0 h contact time",3.10E+05 CFU/mL
same,"CFU/mL, Run #1-#2","[1]; metal plate, 0 h contact time",3.40E+05 CFU/mL and 2.80E+05 CFU/mL
same,"CFU/mL, Avg","[1]; metal plate, 24 h contact time",0.00E+00 CFU/mL
same,"CFU/mL, Run #1-#2","[1]; metal plate, 24 h contact time",0.00E+00 CFU/mL
same,"CFU/mL, Avg","[1]; vinyl tile, 0 h contact time",2.60E+05 CFU/mL
same,"CFU/mL, Run #1-#2","[1]; vinyl tile, 0 h contact time",2.30E+05 CFU/mL and 2.90E+05 CFU/mL
same,"CFU/mL, Avg","[1]; vinyl tile, 24 h contact time",0.00E+00 CFU/mL
same,"CFU/mL, Run #1-#2","[1]; vinyl tile, 24 h contact time",0.00E+00 CFU/mL
same,"CFU/mL, Avg","[1]; wall-paper, 0 h contact time",1.94E+05 CFU/mL
same,"CFU/mL, Avg","[1]; wall-paper, 24 h contact time",0.00E+00 CFU/mL
same,"CFU/mL, Run #1-#2","[1]; wall-paper, 24 h contact time",0.00E+00 CFU/mL
same,"CFU/mL, Average","[2]; acetate, sprayed 0.06% w/w AgAOT/isopropanol, 0 h contact time",3.08E+05 CFU/mL
same,"CFU/mL, Average",[2]; [8],0.00E+00 CFU/mL
same,"CFU/mL, Run #1-#4",[2]; [8],0.00E+00 CFU/mL
same,"CFU/mL, Average","[2]; cotton, sprayed 0.06% w/w AgAOT/isopropanol, 0 h contact time",2.53E+05 CFU/mL
same,"CFU/mL, Average",[2]; [9],0.00E+00 CFU/mL
same,"CFU/mL, Run #1-#4",[2]; [9],0.00E+00 CFU/mL
same,E. coli eradication,"[2]; each fabric except silk, 0.06% silver solution sprayed, 24 h contact time",complete eradication
same,attenuation of E. coli growth,"[2]; fabrics, 0.06% silver solution sprayed, 0 h contact time (5-10 minutes)",do not significantly attenuate
same,attenuation of E. coli growth,"[2]; linen and polyester, 0.06% silver solution sprayed, 0 h contact time",partial attenuation
same,"CFU/mL, Average","[2]; linen, sprayed 0.06% w/w AgAOT/isopropanol, 0 h contact time",1.46E+05 CFU/mL
same,"CFU/mL, Average",[2]; [10],0.00E+00 CFU/mL
same,"CFU/mL, Run #1-#4",[2]; [10],0.00E+00 CFU/mL
same,"CFU/mL, Average","[2]; polyester, sprayed 0.06% w/w AgAOT/isopropanol, 0 h contact time",9.10E+04 CFU/mL
same,"CFU/mL, Average",[2]; [11],0.00E+00 CFU/mL
same,"CFU/mL, Run #1-#4",[2]; [11],0.00E+00 CFU/mL
same,"CFU/mL, Average","[2]; rayon, sprayed 0.06% w/w AgAOT/isopropanol, 0 h contact time",2.88E+05 CFU/mL
same,"CFU/mL, Average","[2]; rayon, sprayed 0.06% w/w AgAOT/isopropanol, 24 h contact time",3.25E+05 CFU/mL
same,effect on E. coli,"[2]; silk, 0 h contact time (5-10 minutes)",neither organism was significantly affected
same,effect on E. coli,"[2]; silk, 24 h contact",eradicated completely
same,"CFU/mL, Average",[2]; [12],2.55E+05 CFU/mL
same,"CFU/mL, Run #1-#2",[2]; [12],2.70E+05 CFU/mL and 2.40E+05 CFU/mL
same,"CFU/mL, Average","[2]; silk, sprayed 0.06% w/w AgAOT/isopropanol, 24 h contact time",2.75E+07 CFU/mL
same,"CFU/mL, Average",[2]; [13],3.38E+05 CFU/mL
same,"CFU/mL, Run #1-#4",[2]; [13],3.20E+05 CFU/mL and 3.60E+05 CFU/mL and 3.10E+05 CFU/mL
same,"CFU/mL, Average",[2]; [14],0.00E+00 CFU/mL
same,"CFU/mL, Run #1-#4",[2]; [14],0.00E+00 CFU/mL
same,surviving bacteria (growth),E. coli [3]; 0.0012 weight % Ag in coating,+
same,surviving bacteria (growth),E. coli [3]; 0.003 weight % Ag in coating,+
same,surviving bacteria (growth),E. coli [3]; 0.006 weight % Ag in coating,P
same,surviving bacteria (growth),E. coli [3]; 0.012 weight % Ag in coating,−
same,surviving bacteria (growth),E. coli [3]; 0.03 weight % Ag in coating,−
same,surviving bacteria (growth),E. coli [3]; 0.06 weight % Ag in coating,−
same,surviving bacteria (growth),E. coli [3]; 0.12 weight % Ag in coating,−
same,silver level effective at preventing any growth,E. coli [3]; alkyd resin paint,0.012 % w/w
same,silver level partially effective,E. coli [3]; alkyd resin paint,0.006 % w/w
same,surviving bacteria (growth),E. coli [4]; 0.0012 weight % Ag in coating,+
same,surviving bacteria (growth),E. coli [4]; 0.003 weight % Ag in coating,+
same,surviving bacteria (growth),E. coli [4]; 0.006 weight % Ag in coating,+
same,surviving bacteria (growth),E. coli [4]; 0.012 weight % Ag in coating,+
same,surviving bacteria (growth),E. coli [4]; 0.03 weight % Ag in coating,+
same,surviving bacteria (growth),E. coli [4]; 0.06 weight % Ag in coating,−
same,surviving bacteria (growth),E. coli [4]; 0.12 weight % Ag in coating,−
